The values that follow come from patent US20110118209A1 (priority 2006, published 2011).

The test system of the data set is Lewis Lung Carcinoma. Nature of the data set: Response of s.c. Lewis lung carcinoma in mice. To be noted: for T − C (tumor growth delay): to 750 mg; for Highest non-toxic dosage: IP.
The mark [1] stands for this setting: 30 mg/kg/dose IP Day 2 Q5 min × 7.

`NP(=O)(O)N(CCCl)CCCl`: the Log kill total by setting is: under setting [1], 1.5 log10; (200 mg/kg IP Day 2 Single dose) 1.2 log10. The “T − C (tumor growth delay)” value is 6.1 days under setting [1] and 4.9 days (200 mg/kg IP Day 2 Single dose). The Highest non-toxic dosage worked out at 30 mg kg^−1/dose (Day 2 Q5 min × 7) and 200 mg kg^−1/dose (Day 2 Single dose).
